Anti-infective test results gathered from many reports (values: NIAID ChemDB through PubChem).

All rows: enzyme or target tests; species: Human cytomegalovirus; endpoint: IC50

ICn: concentration for n% inhibition. Lines come from different laboratories, so protocols vary. Blank or dashed fields: not listed here.

| SMILES | read by | target | value |
|---|---|---|---|
| Cc1cccc2nc(N(CC(=O)OC(C)(C)C)c3ccccc3)oc(=O)c12 | - | Protease | 1.4 µM |
| C#Cc1ccc(NC(=O)c2cc3ccccc3cc2O)cc1 | - | HCMV DNA polymerase | 19.4 µM |
| CCCCCCCC/C=C/CCCCCCCC(=O)Nc1nnc(NCCNc2ccccc2)s1 | - | Polymerase | >25 µM |
| COc1ccc2cc(O)c(C(=O)N[C@H](C)c3ccc([N+](=O)[O-])cc3)cc2c1 | - | HCMV DNA polymerase | >100 µM |
| N/C(=N\OC(=O)c1cccc(Cl)c1)c1ccc(Cl)cc1Cl | scintillation proximity / radiometric | Polymerase | 11 µM |
| O=C(Nc1nnc(NCCc2ccccc2)s1)c1ccc(Cl)cc1Cl | - | Polymerase | >25 µM |
| COC(=O)[C@H](CCSC)Nc1nc2ccc(NC(=O)OC(C)(C)C)c(C)c2c(=O)o1 | - | Protease | 0.77 µM |
| CCCCCCCCCCCNc1nnc(NC(=O)/C=C/c2ccccc2)s1 | - | Polymerase | >25 µM |
| O=C(Nc1ccc([N+](=O)[O-])cc1)c1cc2cc(O)ccc2cc1O | - | HCMV DNA polymerase | 33.7 µM |
| COCC(=O)Nc1ccc2nc(N[C@@H](Cc3ccccc3)C(=O)OC)oc(=O)c2c1C | - | Protease | 0.64 µM |
| O=C(Nc1nnc(NC2CCCCCC2)s1)c1cc(F)cc(F)c1 | - | Polymerase | >25 µM |
| Cc1c(Br)ccc2nc(N(C)Cc3ccccc3)oc(=O)c12 | - | Protease | 3.1 µM |
| Cc1c(F)cccc1C(=O)O/N=C(\N)c1ccc(Cl)cc1Cl | scintillation proximity / radiometric | Polymerase | 2.1 µM |
| COC(=O)[C@H](C)Nc1nc2ccc(NC(=O)c3ccno3)c(C)c2c(=O)o1 | - | Protease | 0.83 µM |
| COc1ccc2cc(O)c(C(=O)Nc3ncc(Br)cn3)cc2c1 | - | HCMV DNA polymerase | >40 µM |

For reference, 2 entries again:

SMILES | read by | target | value
N/C(=N\OC(=O)c1cccc(Cl)c1)c1ccc(Cl)cc1Cl | scintillation proximity / radiometric | Polymerase | 11 µM
O=C(Nc1nnc(NCCc2ccccc2)s1)c1ccc(Cl)cc1Cl | - | Polymerase | >25 µM